Anti-infective test results gathered from many reports (values: NIAID ChemDB through PubChem).

Shared fields: host cell toxicity; measure: CC50

Blank or dashed fields: not listed here. CCn is the concentration with n% toxicity to the cells. Lines come from different laboratories, so protocols vary.

compound | cells | method | value
CC(C)NCC(O)COc1cccc2ccccc12 | CHO | MTT | >300 µM
COc1cc(Br)cc(-c2oc3ccccc3c(=O)c2O)c1OC | CHO | MTS / absorbance | 25.5 µM
COc1ccc(Cc2cc(C3CCN(C(=O)c4ccc([N+](=O)[O-])cc4)CC3)nc(N)n2)cc1 | Jurkat cells (PMA-stimulated) |  | >5 µM
Nc1nc(N)c2cc3c(nc2n1)CCc1ccccc1-3 | CCRF-CEM | MTT | 1.7 µM
COc1cccc(OCCCCCOc2cccc(NC(N)=S)c2)c1 | Ava5-EG(delta4AB)SEAP | MTS | >1 µM
CCn1c2c(c(=O)c3cc(C(C)C)ccc31)Cc1ccccc1-2 | HELA-OHIO | MTT | >4 µg/mL
COc1ccc(Cc2cc(C3CCN(C(=O)c4ccc5ccoc5c4)CC3)nc(N)n2)cc1 | Jurkat cells (PMA-stimulated) |  | >5 µM
CN(C(=O)[C@H](Cc1ccccc1)NC(=O)CNC(=O)c1ccccc1)c1cccc(C(F)(F)F)c1 | TZM-gfp | XTT | >50 µM
CCn1c2c(c(=O)c3cc(C(C)C)ccc31)Cc1cc(C)sc1-2 | HELA-OHIO | MTT | >5 µg/mL
S=C(Nc1ccc2c(c1)Cc1cc(Br)ccc1-2)Nc1cccc2ccccc12 | Ava5-EG(delta4AB)SEAP | MTS | >1 µM
CCOC(C(=O)O)c1c(C)nc2sc3c(c2c1-c1ccccc1CO)CCCC3 | MT-2 |  | >20 µM
COc1ccc2c(O[C@@H]3C[C@H]4C(=O)N[C@]5(C(=O)NS(=O)(=O)C6CC6)C[C@H]5/C=C\CCCCN(C)C(=O)[C@@H]4C3)cc(-c3nc(C(C)C)cs3)nc2c1C | Huh7-SGcon1b |  | >42 µM
S=C(NCCc1ccc2c(n1)NCCC2)Nc1cccc2ccccc12 | PBMC |  | 0.9 µM
COc1ccc(/C=C/C(=O)C2=C(/C=C/c3ccc(OC)cc3)N=C3SC=C(C)N3C2c2ccccc2)cc1 | C1008 (Vero cells) | resazurin | 358 µg/mL
Clc1ccc2c(NCCCNc3nccc(N4CCCCC4)n3)ccnc2c1 | CRFK cells | MTS / tetrazolium / absorbance | 9.8 µM
Nc1nc(Cl)cc(OC[C@H]2O[C@H](COCc3ccccc3)[C@@H](OCc3ccccc3)[C@H]2OCc2ccccc2)n1 | PC-3 |  | >250 µM
NC(=S)Nc1cccc(OCCCCCNc2ccc(C3CCCCC3)cc2)c1 | Ava5-EG(delta4AB)SEAP | MTS | >1 µM
Cc1nc2sc3c(c2c(-c2cccc(-c4nccn4C)c2)c1C(OC(C)(C)C)C(=O)O)CCCC3 | MT-2 |  | >20 µM
Cc1cc(NC(=O)NCCc2ccc3c(n2)NCCC3)cnc1Cl | PBMC |  | 50 µM
COc1ccc(Cc2cc(C3CCN(C(=O)c4ccccc4)CC3)nc(N)n2)cc1 | Jurkat cells (PMA-stimulated) |  | >5 µM
Nc1nc(N)nc(OC[C@H]2CC[C@@H](CO)O2)n1 | PC-3 |  | >250 µM
Clc1ccc2c(NCCCCNc3nccc(Cl)n3)ccnc2c1 | CRFK cells | MTS / tetrazolium / absorbance | >100 µM
CC(=O)O[C@@]12[C@H](OC(=O)/C=C/c3ccc(Br)cc3)[C@@H](C)[C@@]3(O)[C@@H](C=C(CO)C[C@]4(O)C(=O)C(C)=C[C@@H]34)[C@@H]1C2(C)C | C8166 | MTT | 41.15 µM
Nc1nc(N)c2cc3c(ccc4ccccc43)nc2n1 | SK-5 | MTT | 6.3 µM
Cc1nc2ccc(-c3c(C(OC(C)(C)C)C(=O)O)c(C)nc4sc5c(c34)CCCC5)cc2s1 | MT-2 |  | >20 µM
CCN(CC)c1ccc2c(c1)Cc1cc(NC(N)=S)ccc1-2 | Ava5-EG(delta4AB)SEAP | MTS | >1 µM
COc1ccccc1-c1cc(=O)c2c(OCc3ccccc3)cccc2o1 | CHO | MTS / absorbance | 25.5 µM
S=C(NCCCCc1ccccc1)Nc1cccc(OCCCCCc2ccccc2)c1 | Ava5-EG(delta4AB)SEAP | MTS | >1 µM
O=C(NCCc1ccc2c(n1)NCCC2)Nc1ccccc1N1CCOCC1 | PBMC |  | 50 µM
Cc1c(-c2ccc(C(F)(F)F)cc2)[nH]c2nc3c(ncn3COCCO)c(=O)n12 | OST TK- |  | ≥500 µg/mL
CCn1c(-c2ccccc2)c(C)c(=O)c2cc(OCC(C)C)ccc21 | HELA-OHIO | MTT | >4 µg/mL
COc1cc(/C=C/C(=O)C2=C(/C=C/c3cc(OC)c(OC)c(OC)c3)N=C3SC=C(C)N3C2c2cc(OC)c(OC)c(OC)c2)cc(OC)c1OC | C1008 (Vero cells) | resazurin | 167 µg/mL
CN(C(=O)[C@H](Cc1ccccc1)NC(=O)CC1NC(=O)NC1=O)c1ccc(Cl)cc1 | TZM-gfp | XTT | >50 µM
CCCc1cc(=O)oc2cc(OC(=O)CC)c3c(c12)OC(C)(C)C=C3 | CV-1 | neutral red | 10 µg/mL
O=C1OCc2cc(=O)c(O)c(O)c(O)c21 | CEM-SS | absorbance | 19 µM
CCn1c(-c2ccccc2)c(C)c(=O)c2cc(C(C)C)ccc21 | HeLa S3 | MTT | 12 µg/mL
CC1=CSC2=NC(/C=C/c3ccc(Cl)cc3)=C(C(=O)/C=C/c3ccc(Cl)cc3)C(c3ccc(Cl)cc3)N12 | C1008 (Vero cells) | resazurin | 309 µg/mL
CN1CCN(CC(O)COc2ccc3ccccc3c2)CC1 | CHO | MTT | 148.7 µM
CSc1nsc(-c2ccc(OCCCCOc3ccccc3)cc2)c1C#N | HELA-OHIO |  | >50 µM
O=c1c2ncn(COCCO)c2nc2[nH]c(-c3ccc(C(F)(F)F)cc3)cn12 | OST TK-/HSV-1 TK+ |  | 0.2 µg/mL
COc1ccc(C)cc1-c1oc2ccccc2c(=O)c1O | CHO | MTS / absorbance | 25.5 µM
COc1cccc(-c2cccc(NC(=O)NCCc3ccc4c(n3)NCCC4)n2)c1 | PBMC |  | 25 µM
CCOc1ccccc1N1CCN(CC(O)COc2ccc3c(c2C(C)C)CCC2C(C)(C)CCC[C@]32C)CC1 | CHO | MTT | 183 µM
COc1ccc(Cc2cc(C3CCN(C(=O)c4ccc5nsnc5c4)CC3)nc(N)n2)cc1 | Jurkat cells (PMA-stimulated) |  | >5 µM
CC(=O)N[C@@H](CC(C)C)C(=O)N[C@@H](CC(C)C)C(=O)N[C@H](C=O)CCCN=C(N)N | MRC-C |  | 50 µg/mL
CCCc1cc(=O)oc2cc(OCC(C)(C)C(=O)O)c3c(c12)OC(C)(C)C=C3 | CV-1 | neutral red | 20 µg/mL
CC(C)NCC(O)COc1ccc2c(c1C(C)C)CCC1C(C)(C)CCC[C@]21C | CHO | MTT | 1.28 µM
CC1=CSC2=NC(/C=C/c3ccc(Br)cc3)=C(C(=O)/C=C/c3ccc(Br)cc3)C(c3ccc(Cl)cc3)N12 | C1008 (Vero cells) | resazurin | 420 µg/mL
CCOC(=O)c1ccc(OCCCCOc2ccc(-c3snc(SC)c3C#N)cc2)cc1 | HELA-OHIO |  | 2 µM
CCOC(C(=O)O)c1c(C)nc2sc3c(c2c1-c1ccccc1O)CCCC3 | MT-2 |  | >20 µM
Nc1nc(OC[C@H]2CC[C@@H](COCc3ccccc3)O2)cc(OC[C@@H]2CC[C@H](COCc3ccccc3)O2)n1 | PC-3 |  | 20 µM
Cc1cccc(-c2ccc(Oc3ccc(Cl)cc3Cl)c(O)c2)c1 | Human foreskin fibroblasts | fluorescence | >10 µM
COC(=O)c1cc(O)c(O)c(=O)cc1C | CEM-SS | absorbance | 8.5 µM
Oc1cc(Cl)ccc1Oc1ccc(Cl)cc1CNCc1ccc2c(c1)CCO2 | Human foreskin fibroblasts | fluorescence | >10 µM
c1ccc(COC[C@H]2CC[C@@H](COc3cc(OC[C@H]4CC[C@@H](COCc5ccccc5)O4)ncn3)O2)cc1 | CAKI-1 |  | 33 µM
CCOC(=O)c1ccc(OCCCOc2ccc(-c3snc(SC)c3C#N)cc2)cc1 | HELA-OHIO |  | 2 µM
CC(C)c1ccc(NC(=O)NCC2CCc3ccccc3N2)cc1 | PBMC |  | 50 µM
Cc1nc2sc3c(c2c(-c2cccc4c2cnn4C)c1C(OC(C)(C)C)C(=O)O)CCCC3 | MT-2 |  | >20 µM
Nc1nccc(OC[C@@H]2O[C@H](CO)[C@@H](O)[C@H]2O)n1 | CAKI-1 |  | 202 µM
O=C(NCCc1ccc2c(n1)NCCC2)Nc1ccc(C(F)(F)F)cc1Cl | PBMC |  | 25 µM
CSc1nsc(-c2ccc(OCCOc3ccc([N+](=O)[O-])cc3)cc2)c1C#N | HELA-OHIO |  | 2 µM
CC(C)c1c(OCC(O)CN2CCCCC2)ccc2c1CCC1C(C)(C)CCC[C@]21C | CHO | MTT | 2.99 µM
COc1ccc(C2C(C(=O)/C=C/c3cccs3)=C(/C=C/c3cccs3)N=C3SC=C(C)N32)cc1 | C1008 (Vero cells) | resazurin | 235 µg/mL
COc1ccc(-c2[nH]c3nc4c(ncn4COCCO)c(=O)n3c2C)cc1 | OST TK-/HSV-1 TK+ |  | 0.012 µg/mL
CCCc1cc(=O)oc2c3c(c4c(c12)OC(C)(C)[C@H](O)[C@H]4O)O[C@H](C)[C@@H](C)[C@@H]3O | CV-1 |  | >100 µg/mL
COC(=O)c1cc(=O)c(O)c(OC)cc1C | CEM-SS | absorbance | >50 µM
O=c1c2ncn(COCCO)c2nc2[nH]c(-c3ccccc3)c(Cc3ccccc3)n12 | OST TK-/HSV-1 TK+ |  | 0.29 µg/mL
CC/C=C\C/C=C\C/C=C\C/C=C\C/C=C\CCCC(=O)O[C@@H]1[C@@H](C)[C@@]2(O)[C@@H](C=C(COC(C)=O)C[C@]3(O)C(=O)C(C)=C[C@@H]23)[C@@H]2C(C)(C)[C@]12O | C8166 | MTT | 33.91 µM
Nc1nc(N)nc(OC[C@H]2CC[C@@H](COc3nc(N)nc(N)n3)O2)n1 | CAKI-1 |  | ≥250 µM
CC(=O)OCC1=C[C@H]2[C@@H]3C(C)(C)[C@]3(O)[C@H](OC(=O)/C=C/c3ccccc3)[C@@H](C)[C@]2(O)[C@@H]2C=C(C)C(=O)[C@@]2(O)C1 | C8166 | MTT | 108 µM
COc1ccc(S(=O)(=O)NCCc2ccc3c(n2)NCCC3)c(OC)c1 | PBMC |  | 50 µM
CCN(CC)CC(O)COc1ccc2c(c1C(C)C)CCC1C(C)(C)CCC[C@]21C | CHO | MTT | 7.73 µM
COc1ccc(-c2c(C)c(=O)c3c(C)c(OCC(C)C)ccc3n2C)cc1C | HeLa S3 | MTT | >4 µg/mL
COc1ccc(Cc2cc(C3CCN(C(=O)c4ccc(Cl)cc4)CC3)nc(N)n2)cc1 | Jurkat cells (PMA-stimulated) |  | >5 µM
O=C(Cc1ccc(Cl)c(Cl)c1)NCCCc1ccc2c(n1)NCCC2 | PBMC |  | 6.4 µM
Cc1c(-c2cccs2)n(C)c2ccc(OCC(C)C)c(C)c2c1=O | HeLa S3 | MTT | >2.5 µg/mL
Cc1nc2sc3c(c2c(-c2cnc4[nH]ccc4c2)c1C(OC(C)(C)C)C(=O)O)CCCC3 | MT-2 |  | >20 µM
CCn1c(-c2ccco2)cc(=O)c2cc(C(C)C)ccc21 | HELA-OHIO | MTT | 19 µg/mL
CSc1nsc(-c2ccc(OCCCOc3ccc(C#N)cc3)cc2)c1C#N | HEP-2/L-929/VERO |  | 2 µM
Cc1ccc(N(C)C(=O)[C@H](Cc2ccccc2)NC(=O)Cn2cc(C)c(=O)[nH]c2=O)cc1 | TZM-gfp | XTT | >50 µM
CSc1nsc(-c2ccc(OCCOc3ccccc3)cc2)c1C#N | HEP-2/L-929/VERO |  | >20 µM
Oc1ccc(Oc2ccc(Cl)cc2O)c(Cl)c1 | Human foreskin fibroblasts | fluorescence | >10 µM
CN1CCN(C(=S)Nc2cccc(OCCCCCOc3ccc(-c4ccccc4)cc3)c2)CC1 | Ava5-EG(delta4AB)SEAP | MTS | >1 µM
O=S(=O)(NCc1cc(Cl)ccc1Oc1ccc(Cl)cc1O)c1ccccc1 | Human foreskin fibroblasts | fluorescence | >10 µM
CN(CCc1ccccc1)Cc1c(CC2CCCCC2)[nH]c2ccnc(Cl)c12 | HEK293T | MTT | 19.1 µg/mL
OC[C@@H]1CC[C@H](COc2ncnc3nc[nH]c23)O1 | L1210 |  | >250 µM
Cc1nc2sc3c(c2c(-c2ccc(N(C)C)nc2)c1C(OC(C)(C)C)C(=O)O)CCCC3 | MT-2 |  | >20 µM
CC/C=C\C/C=C\C/C=C\C/C=C\C/C=C\CCCC(=O)O[C@@H]1[C@@H](C)[C@@]2(O)[C@@H](C=C(CO)C[C@]3(O)C(=O)C(C)=C[C@@H]23)[C@@H]2C(C)(C)[C@]12OC(=O)CCC/C=C\C/C=C\C/C=C\C/C=C\C/C=C\CC | C8166 | MTT | >200 µM
CC(C)c1c(O)ccc2c1CCC1C(C)(C)CCC[C@]21C | CHO | MTT | 170 µM
CC1=C[C@H]2[C@@]3(O)[C@H](C)[C@@H](OC(=O)/C=C/c4ccc(F)cc4)[C@]4(OC(=O)CCCCCBr)[C@H]([C@@H]3C=C(CO)C[C@]2(O)C1=O)C4(C)C | C8166 | MTT | 48.1 µM
CN(C(=O)[C@H](Cc1ccccc1)NC(=O)CNC(=O)c1ccccc1)c1cccc(Br)c1 | TZM-gfp | XTT | >50 µM
CN1CCN(CC(O)COc2cccc3ccccc23)CC1 | CHO | MTT | 261 µM
Cc1cc(-c2c(C(OC(C)(C)C)C(=O)O)c(C)nc3sc4c(c23)CCCC4)ccn1 | MT-2 |  | >20 µM
COc1ccc(I)cc1-c1oc2ccccc2c(=O)c1O | CHO | MTS / absorbance | 25.5 µM
CSc1nsc(-c2ccc(OCCOc3ccc(C#N)cc3)cc2)c1C#N | HELA-OHIO |  | 2 µM

7 of the rows above, restated:

compound,cells,method,value
COc1ccc(Cc2cc(C3CCN(C(=O)c4ccc5nsnc5c4)CC3)nc(N)n2)cc1,Jurkat cells (PMA-stimulated),,>5 µM
CC(C)NCC(O)COc1cccc2ccccc12,CHO,MTT,>300 µM
S=C(NCCCCc1ccccc1)Nc1cccc(OCCCCCc2ccccc2)c1,Ava5-EG(delta4AB)SEAP,MTS,>1 µM
Nc1nc(N)nc(OC[C@H]2CC[C@@H](COc3nc(N)nc(N)n3)O2)n1,CAKI-1,,≥250 µM
COc1ccc(Cc2cc(C3CCN(C(=O)c4ccc5ccoc5c4)CC3)nc(N)n2)cc1,Jurkat cells (PMA-stimulated),,>5 µM
COc1cccc(OCCCCCOc2cccc(NC(N)=S)c2)c1,Ava5-EG(delta4AB)SEAP,MTS,>1 µM
CSc1nsc(-c2ccc(OCCCOc3ccc(C#N)cc3)cc2)c1C#N,HEP-2/L-929/VERO,,2 µM